# Assay results from the supplement of paper PMC9931576.
# Human monoclonal antibodies against the spike receptor-binding domain (heavy:light variable regions). IC50 against pseudoviruses bearing the spike of naturally observed variants; lower = stronger; >10 µg/ml means not reached at the top dose. No active / inactive call. The stated detection limit is 0.0005 µg/ml; values near or below 0.001 µg/ml lie at the floor of the assay.
# B1: BD57-047 (protein)
# chain 1: QVQLVQSGAEVKKPGSSVKVSCKASGGTFSSYAINWVRQAPGQGLEWMGRIISMFDIANYAQNFQGRVTITADKSTSTAYMELNSLRSEDTAVYYCATTKFFYDPGVGYYFDYWGQGTLVTVSS
# chain 2: EIVLTQSPGTLSLSPGERATLSCRASQNLGSNYLAWYQQKPGQAPRLLIYGASSRATGIPDRFSGSGSGTDFILTISRLEPEDFAVYYCQQYDTSRTFGQGTKVEIK
# B2: BD57-034 (protein)
# chain 1: EVQLVESGGGLVQPGRSLRLSCTASGFTFEDYAMHWVRQAPGKGLEWVSGTSWNSGTIGYADSVKGRFIIIRDNAKNSLYLQMNSLRAEDTALYYCAKDLIAVGGTLLEEYALDVWGQGTTVTVSS
# chain 2: QSALTQPASVSGSHGQSITISCTGTSSDVGGYNYVSWYQQHPGKAPKLMIYDVSKRPSVVSNRFSGSKYGNKASLTISGLQAEDEADYYCSSYTSSSTVVFGGGTKLTVL
# B3: BD57-027 (protein)
# chain 1: EVQLVESGGGLVQPGGSLRLACAASGVTVSSNYMSWVRQAPGKGLEWVSILYSGGSTFYADSVKGRFTISRDNSKNTLYLQMNSLRAEDTAVYYCARDLLEAGGTDQWGQGTLVTVSS
# chain 2: EIVLTQSPGTLSLSPGERATLSCRASQSISSSSLAWYQQKPGQAPSLLIYGASSRATGIPDRFSGSGSGTDFTLTISRLEPEDFAVYYCQQYGSSPGYTFGQGTKLEIK
# B4: BD57-052 (protein)
# chain 1: QLQLQESGSGLVKPSQTLSLTCAVSGGSIRSVAYFWSWIRQPPGKGLEWIGDIFHTGDTYYNASLKSRITMSLDRSNNHFSLNLSSVTAADTAVYYCAARIVGAGDWFDPWGRGTLVSVSS
# chain 2: SYVLTQPPSVSVAPGKTARITCGGNNIGSKSVHWYQQKPGQAPVLVIYYDSDRPSGIPERFSGSNSGNTATLTISRVEAGDEADYFCQMWDSSSDHNYVFGTGTKVTVL
# B5: BD57-049 (protein)
# chain 1: QMQLVQSGPEVKKPGTSAKVACQASGFTFYSSAIQWVRQARGQRLEWIGWIVVGSGNTNYAEEFQERVTITRDMSTSTAYMELSSLRSGDTAVYYCAAPHCNRTSCYDGFDIWGQGTMVTVSS
# chain 2: EIVLTQSPGTLSLSPGERATLSCRASQSVSSNYLAWYQQKPGQAPRLLIYGASSRATGIPDRFSGSGSGTDFTLTISRLEPEDFAVYYCQHYGGSLFTFGPGTKVDIK
# B6: BD57-032 (protein)
# chain 1: QVQLVESGGGLVKPGGSLRLSCATSGFTFNDYDMRWIRQAPGKGLEWVSYISKSGSTIYYAGSVKGRFTISRENARNSLYLQMNSLRAEDTAVYYCARDLWTISSGWYALDGQAFDYWGQGTLVTVSS
# chain 2: QSVLTQPPSVSGAPGQRVTISCTGSSSNIGAGYDVHWYQQLPGTAPKLLIYGNSNRPSGVPDRFSGSKSGTSASLAITGLQAEDEADYYCQSYDSSLSAPYWVFGGGTKLTVL
# B7: BD57-051 (protein)
# chain 1: QVQLVQSGAEVKKPGSSVKVSCKASGDTFSSTISWVRQAPGQGLEWMGRIIPMIDIVNYAQKFQGRVTITADKSTSTVYMEMSSLRSEDTAVYYCTRVFGYGELSYGMDVWGQGTTVTVSS
# chain 2: DIQMTQSPSSLSASVGDRVTITCRASQTISRYLNWYQQKPGEAPKLLIYAASTLQSGVPSRFSGSGSGTDFTLTINSLQPEDFATYYCQQSYRMYTFGQGTKLDIK
# B8: BD57-030 (protein)
# chain 1: EVQLVESGGGLVQPGRSLRLSCAASGFTFDEYAMHWVRQAPGKGLEWVSGISWNSGVIGYADSVRGRFIISRDNAKNSLYVQMKSLRAEDTALYYCAKGKGDCSSTSCSGAYGMDVWGQGTTVTVSS
# chain 2: QSALTQPASVSGSPGQSITISCTGTSSDVGGYNYVSWYQQHPGKAPKLMIYDVSNRPSGVSNRFSGSTSGNTASLTISGLQAEDEADYFCSSFAITDTLVFGGGTKLTVL
# B9: BD57-039 (protein)
# chain 1: QVTLRESGPALVKPTQTLTLTCTFSGISVSTVGMCVSWIRQPPGKALEWLARIDWDDDKYYNTSLKTRLTISKDISRNQVVLTMTNMNPVDTATYYCAQILGYSSPEPYGMDVWGQGTTVTVSS
# chain 2: DIQMTQSPSSLSASVGDRVTITCRASQGIRNYLAWYQQKPGKVPKLLIYTASTLQSGVPSRFSGSGSGTDFTLTISSLQAEDVATYYCQKYNSAPFTFGPGTKVDIK
# B10: BD57-028 (protein)
# chain 1: QITLKESGPTLVKPTQTLTLTCTFSGFSLSASGEGMGWIRQPPGKALEWLALIYWDADERYSPSLRSRLTITKDTSKNQVVLKMTNMNPVDTATYYCAHHSITTVVDYWGQGMLVTVSS
# chain 2: QSALTQPASVSGSPGQSITISCTGTISDVGAFNYVSWYQQHPGRAPKLIIYDVSTRPSGISIRFSGSKSGNTASLTISGLQPEDEADYYCSSYSHTSLVFGTGTKVTVL
# B11: BD57-026 (protein)
# chain 1: EVQLSESGGGLVQPGGSLRLSCVASGFSFSRYDMTWVRQAPGKGLEWVSVIDSGGSTTYYADSVQGRFTISRDNSKNTLYLQMNSLRAGDTAVYYCAKDFLPGNTGHYGGLDYWGQGTLVTVSS
# chain 2: AIRMTQSPSSFSASTGDRVTITCRASQAISSYLAWYQQKPGKAPKFLIYAASTLQSGVPSRFSGSGSGTEFTLTISFLQSEDFATYYCQQYYSYPLTFGGGTKVEIK
# B12: BD57-042 (protein)
# chain 1: QVHLVQSGAEVKKPGASLTVSCQASGYTFNNYALHWVRQAPGQRLEWMGWIHPGLGNTKYSQKFQGRVTITRDTSARTAFMELTSLKSEDTAVYYCARDIEAAAETFDYWGQGTLVTVSS
# chain 2: DIQMTQSPSTLSASVGDRVTITCRASQNINSWLAWYQQKPGKAPKFLIYDASSLKSGVPSRFSGSGSGTDFTLTISSLQPDDFATYYCQQYKSDPTFGQGTKVEIK
# Experiments:
# Test in all cases: pseudovirus neutralization IC50; higher = weaker neutralization
# [1] = target: SARS-CoV-2 Omicron BA.1 spike pseudovirus
# Experimental: (§1)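 Single-round VSV luciferase pseudovirus mixed with antibody dilutions for 1 h and put on Huh-7 cells for about a day; IC50 from the dose curve.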
# [2] = target: SARS-CoV-2 Omicron BA.2 spike pseudovirus
# Experimental: as §1
# [3] = target: SARS-CoV-2 Omicron BA.2.75 spike pseudovirus
# Experimental: as §1
# [4] = target: SARS-CoV-2 Omicron BA.5 spike pseudovirus
# Experimental: as §1
# [5] = target: SARS-CoV-2 Omicron BQ.1.1 spike pseudovirus
# Experimental: as §1
# [6] = target: SARS-CoV-2 Omicron XBB spike pseudovirus
# Experimental: as §1
# [7] = target: SARS-CoV-2 early D614G spike pseudovirus
# Experimental: as §1
Binder,pseudovirus neutralization IC50 [1] [µg/mL],pseudovirus neutralization IC50 [2] [µg/mL],pseudovirus neutralization IC50 [3] [µg/mL],pseudovirus neutralization IC50 [4] [µg/mL],pseudovirus neutralization IC50 [5] [µg/mL],pseudovirus neutralization IC50 [6] [µg/mL],pseudovirus neutralization IC50 [7] [µg/mL]
B1,0.0147,0.0283,0.00641,> 10,> 10,> 10,0.00867
B2,0.0269,0.0308,0.0251,0.174,> 10,0.666,0.0107
B3,0.0212,0.0161,0.0298,0.0139,0.162,0.12,0.0143
B4,0.0955,0.0953,0.125,> 10,> 10,2.6,0.0249
B5,0.00651,0.00857,0.00839,0.134,3.63,> 10,0.00156
B6,0.283,1.64,1.56,1.64,1.83,2.08,0.0378
B7,0.65,0.876,1.02,5.62,> 10,> 10,0.143
B8,1.69,2.11,2.09,4.04,> 10,> 10,0.0152
B9,0.436,0.275,0.276,0.232,> 10,> 10,0.325
B10,0.00623,0.00588,0.00736,0.00568,4.91,4.58,0.00194
B11,0.298,0.273,0.373,1.77,> 10,> 10,0.0673
B12,0.00543,0.00123,0.00337,0.298,> 10,> 10,0.00592
